Pooled drug test results. Numbers come from NIAID ChemDB, via PubChem.

Common to all: tests in culture; species: HIV-1; measure: fold resistance

Rows are shuffled and stem from different studies. a–b is a range or a potency band. Blank or dashed fields: not listed here. Fold resistance has wild type as its base.

SMILES | strain | method | cell line | mutations | result
CCCCCCCCCCCCCCCCOCCCOP(=O)(O)CO[C@H](CO)Cn1cnc2c(N)ncnc21 | - | p24 | MT-2 | RT-M184V | 0.43
Cc1[nH]c(=S)n(Nc2ccccc2Cl)c1-c1ccccc1 | SO561945 (RT K103N Y181C) | cytopathic effect / MTT | MT-4 | RT-K103N Y181C | <6.95
CCN1c2nc(C(F)(F)F)ccc2NC(=O)c2cc(CCOc3cc[n+]([O-])c4ccccc34)cnc21 | - | p24 | C8166 | RT-K103N Y181C | 2.2
CN(C)C1=C(C#N)/C(=C2/C(C#N)=C(N(C)C)N(c3ccc([N+](=O)[O-])cc3)c3c2n(C)c2ccccc32)c2c(c3ccccc3n2C)N1c1ccc([N+](=O)[O-])cc1 | ddI-resistant (RT-K65R) | cytopathic effect / XTT | CEM + CEM-SS | RT-K65R | 0.753
CCCc1c(OC2CCCCC2)c2cc(Cl)ccc2[nH]c1=O | NNRTI-resistant (RT K103N V108I) | β-galactosidase | HeLa + HeLa-MAGI | RT-K103N V108I | >62.5
CCc1c(Cc2cc(C)cc(C)c2)n(COC/C(C)=C/c2ccccc2)c(=O)[nH]c1=O | NNRTI-resistant (RT Y181C) N119 | cytopathic effect / MTT | MT-4 | RT-Y181C | 666
CCN1c2ncc(CCOc3ccc(CC(=O)NN)c4ccccc34)cc2C(=O)N(C)c2cccnc21 | - | p24 | C8166 | RT-K103N Y181C | 1
CCOc1c(OCC2CCC2)c2cc(F)ccc2[nH]c1=O | Nevirapine-resistant (RT Y181C) | - | MT-4 | RT-Y181C | 2.13
CCCCCCCCCCCCCCCCCCOCCOP(=O)(O)CO[C@H](CO)Cn1cnc2c(N)ncnc21 | - | p24 | MT-2 | RT-K103N | 0.875
CCc1c(Cc2cc(C)cc(C)c2)n(COCC2CC=CCC2)c(=O)[nH]c1=O | NNRTI-resistant (RT K103N Y181C) A17 | cytopathic effect / MTT | MT-4 | RT-K103N Y181C | >5000
Cc1cc(C#N)cc(C(=O)c2cc(Cl)ccc2OCC(=O)Nc2ccc(OCCCN3CC=CC3)cc2C)c1 | Nevirapine-resistant (RT Y181C) | cytopathic effect / propidium iodide | MT-4 | RT-Y181C | ~1
CCOc1ccc(F)c(CCNC(=S)Nc2ncc(C(F)(F)F)s2)c1Cl | IIIB | cytopathic effect / XTT | MT-4 | RT-L100I | >28.6
COC(=O)[C@H](C)NP(=O)(OC[C@@H]1C=C[C@H](n2cc(C)c(=O)[nH]c2=O)O1)Oc1cc(Cl)ccc1Cl | A17 | p24 | PBMC | RT-Y181C | 37
Cc1ccc(Nn2c(-c3ccccc3)c(C)[nH]c2=S)cc1Cl | SO561945 (RT K103N Y181C) | cytopathic effect / MTT | MT-4 | RT-K103N Y181C | <4.08
CSCSc1nc(C(C)c2c(F)cccc2F)cc(=O)[nH]1 | IIIB | cytopathic effect / MTT | MT-4 | RT-K103N Y181C | >125
CCN1C(=O)c2c(O)c(=O)c(C(=O)NCc3ccc(F)cc3F)cn2[C@H]2CCOC[C@H]21 | - | luminescence | MT-2 | E138K/Q148K | 3.5
CCc1c(Cc2cc(C)cc(C)c2)n(COC/C=C/c2ccccc2)c(=O)[nH]c1=O | NNRTI-resistant (RT Y181C) N119 | cytopathic effect / MTT | MT-4 | RT-Y181C | 1333
CCN1C(=O)c2c(O)c(=O)c(C(=O)NCc3ccc(F)c(Cl)c3F)cn2[C@H]2CCO[C@H]21 | - | luminescence | MT-2 | N155H/Q148R | 2.2
CCCCCCCCCC[N+](C)(C)CCCNCc1c(O)cc2c(c1O)-c1cc(ccc1O)[C@H]1NC(=O)[C@@H]3NC(=O)C4NC(=O)[C@@H](Cc5ccc(c(Cl)c5)Oc5cc3cc(c5O)Oc3ccc(cc3Cl)[C@@H](O)[C@H](NC1=O)C(=O)N[C@@H]2C(=O)O)NC(=O)[C@H](N)c1ccc(O)c(c1)Oc1cc(O)cc4c1 | - | syncytia | CEM | RT-K103N | 2.14
CCCc1c(Cc2ccccc2)n(COC/C=C/c2ccccc2)c(=O)[nH]c1=O | NNRTI-resistant (RT K103N Y181C) A17 | cytopathic effect / MTT | MT-4 | RT-K103N Y181C | >10000
Cc1cc(C)cc(S(=O)(=O)c2c(C(N)=O)[nH]c3c(Cl)cc(Cl)cc23)c1 | - | cytopathic effect / MTT | MT-4 | RT-Y181C | >62.5
CCN1c2ncc(CCOc3ccc(NS(=O)(=O)C(F)(F)F)c4ccccc34)cc2C(=O)N(C)c2ccc(F)nc21 | - | p24 | C8166 | RT-K103N Y181C | 1
CCCc1c(SCC2CCC2)c2cc(F)ccc2[nH]c1=O | Nevirapine-resistant (RT Y181C) | - | MT-4 | RT-Y181C | 2.71
CS(=O)(=O)Nc1ccc(NC(=O)COc2ccc(Cl)cc2C(=O)c2ccccc2)cc1 | HXB2 | β-galactosidase | HeLa + HELA CD4+ | RT-Y181C | ~10
Cc1cc(C)cc(Nn2c(-c3ccccc3)c(C)[nH]c2=S)c1 | SO561945 (RT K103N Y181C) | cytopathic effect / MTT | MT-4 | RT-K103N Y181C | <223
Cc1cc(C)cc(S(=O)(=O)c2c(C(=O)/C=C/C(N)=O)[nH]c3ccc(Cl)cc23)c1 | - | cytopathic effect / MTT | MT-4 | RT-K103N Y181C | >1666
CCN1c2ncc(CCOc3ccc4cc(C(=O)NC(C)(C)C(=O)O)ccc4c3)cc2C(=O)N(C)c2cccnc21 | - | p24 | C8166 | RT-K103N Y181C | 1–10
CCCc1c(OCC2CCC2)c2cc(F)ccc2[nH]c1=O | Nevirapine-resistant (RT Y181C) | - | MT-4 | RT-Y181C | 3.34
CCOc1c(Cl)cc(F)c(CCNC(=S)Nc2ccc(Br)cn2)c1Cl | IIIB | cytopathic effect / XTT | MT-4 | RT-Y181C | 12.3
COC(=O)[C@H](C)NP(=O)(OC[C@@H]1C=C[C@H](n2cc(C)c(=O)[nH]c2=O)O1)Oc1ccc(OC)cc1 | A17 | p24 | PBMC | RT-Y181C | 30
CCN1C(=O)c2c(O)c(=O)c(C(=O)NCc3c(F)cc(F)cc3F)cn2[C@H]2CCOC[C@H]21 | - | luminescence | MT-2 | N155H/Q148R | 2.2
CCCc1c(OC2CCCC2)c2cc(C#N)ccc2[nH]c1=O | Nevirapine-resistant (RT Y181C) | - | MT-4 | RT-Y181C | 28.8
Cc1cc(S(N)(=O)=O)ccc1NC(=O)COc1ccc(Cl)cc1C(=O)c1cc(Cl)cc(C#N)c1 | HXB2 | β-galactosidase | HeLa + HELA CD4+ | RT-P236L | ~1
Cc1c(OCC2CCC2)c2cc(F)ccc2[nH]c1=O | NNRTI-resistant (RT V106A) | β-galactosidase | HeLa + HeLa-MAGI | RT-V106A | >3.28
CCc1c(OC2CCCC2)c2cc(Cl)ccc2[nH]c1=O | Nevirapine-resistant (RT Y181C) | - | MT-4 | RT-Y181C | 15.6
CCCc1c(Cc2cc(C)cc(C)c2)n(COCC2CC=CCC2)c(=O)[nH]c1=O | NNRTI-resistant (RT K103N Y181C) A17 | cytopathic effect / MTT | MT-4 | RT-K103N Y181C | >1250
CCCc1c(OC#CC2CC2)c2cc(Cl)ccc2[nH]c1=O | Nevirapine-resistant (RT Y181C) | - | MT-4 | RT-Y181C | 1.43
N#Cc1cc(Cl)cc(Oc2c(Br)ccc(CC(=O)Nc3ccc(S(N)(=O)=O)cc3Cl)c2F)c1 | - | - | MT-4 | V106A/F227C/M230L | >308
CSCSc1nc(Cc2c(F)cccc2F)cc(=O)[nH]1 | IIIB | cytopathic effect / MTT | MT-4 | RT-Y181C | 67.5
CCCc1c(OC2CCCC2)c2cc(OC(F)(F)F)ccc2[nH]c1=O | Nevirapine-resistant (RT Y181C) | - | MT-4 | RT-Y181C | 7.67
Cc1cc(S(N)(=O)=O)ccc1NC(=O)COc1ccc(Cl)cc1C(=O)c1cc(F)cc(C#N)c1 | HXB2 | β-galactosidase | HeLa + HELA CD4+ | RT-K103N V108I | ~1
S=c1[nH]c(-c2ccccc2)c(-c2ccccc2)n1Nc1cccc(Cl)c1 | SO561945 (RT K103N Y181C) | cytopathic effect / MTT | MT-4 | RT-K103N Y181C | <1
CCN1c2ncc(CCOc3ccc4cc(CC(=O)NN)ccc4c3)cc2C(=O)N(C)c2cccnc21 | - | p24 | C8166 | RT-K103N Y181C | 1
CCCc1c(Cc2cc(C)cc(C)c2)n(COC/C(C)=C/c2ccccc2)c(=O)[nH]c1=O | NNRTI-resistant (RT Y181C) N119 | cytopathic effect / MTT | MT-4 | RT-Y181C | 700
Cc1ncn(Nc2cccc(Cl)c2)c1-c1cccc(C#N)c1 | SO561945 (RT K103N Y181C) | cytopathic effect / MTT | MT-4 | RT-K103N Y181C | 2.53
COC(=O)[C@H](C)NP(=O)(OC[C@@H]1C=C[C@H](n2cc(C)c(=O)[nH]c2=O)O1)Oc1ccc(Cl)cc1 | RTMDR | p24 | PBMC | RT M41L L74V T215Y V106N | 62

A second listing of 3 rows from above:

SMILES,strain,method,cell line,mutations,result
CCCc1c(Cc2ccccc2)n(COC/C=C/c2ccccc2)c(=O)[nH]c1=O,NNRTI-resistant (RT K103N Y181C) A17,cytopathic effect / MTT,MT-4,RT-K103N Y181C,>10000
Cc1cc(S(N)(=O)=O)ccc1NC(=O)COc1ccc(Cl)cc1C(=O)c1cc(Cl)cc(C#N)c1,HXB2,β-galactosidase,HeLa + HELA CD4+,RT-P236L,~1
CCCc1c(SCC2CCC2)c2cc(F)ccc2[nH]c1=O,Nevirapine-resistant (RT Y181C),-,MT-4,RT-Y181C,2.71